Some peptides are written in HELM: one residue between dots, names in brackets for other building blocks, links after the first $.

This series in a line: general procedure: Fmoc solid-phase peptide synthesis; Sieber amide resin; 2-chlorotrityl polystyrene resin; DIC/COMU and OxymaPure. To be noted: for final LC-MS purity: HPLC-MS.

As for PEPTIDE1{P.F.K.I.S.I.H.L.[am]}$$$$V2.0, under “whole synthesis”, the isolated yield worked out at 50% yield and the “final LC-MS purity” value came to 98% purity.
With “PEPTIDE1{P.[Phe(pMP-BODIPY)].K.I.S.I.H.L.[am]}$$$$V2.0”, the “final LC-MS purity” value (whole synthesis) turned out to be 99% purity. The substance also displayed an isolated yield (whole synthesis, overall) of 26% yield.
As to PEPTIDE1{W.F.K.I.I.K.K.[am]}$$$$V2.0, under “whole synthesis”, the isolated yield is 9% yield and the “final LC-MS purity” value worked out at 95% purity.
The like results for “PEPTIDE1{F.V.Q.W.F.S.K.F.L.G.K.I.L.[am]}$$$$V2.0” were, in that order, 10% yield and 99% purity.
As to “PEPTIDE1{P.F.K.I.S.I.H.L}$PEPTIDE1,PEPTIDE1,1:R1-8:R2$$$V2.0”, the “final LC-MS purity” value (cyclisation step) is listed as more than 99% purity. For the same substance, the cyclisation yield (cyclisation step, from cyclization step) is 26% yield from cyclization step.
For “PEPTIDE1{P.[Trp(tetramethyl-BODIPY)].K.I.S.I.H.L.[am]}$$$$V2.0”, for the setting “whole synthesis”, the isolated yield amounted to 27% yield and the “final LC-MS purity” value is more than 99% purity.
